Measured values from several laboratories, pooled; numbers as filed in NIAID ChemDB.

Common to all: tests in culture; agent: Aspergillus fumigatus

Percent inhibition refers to the dose given; in toxicity tests it is the harm to the cells. ECn is the concentration giving n% inhibition of infection, replication or growth. Conditions beyond the fields shown may differ between rows. a–b is a range or a potency band. Zones are inhibition diameters on agar. A number after MIC or MFC names an inhibition level or a share of isolates. An empty or dashed field is not shown.

compound,strain,mutations,read by,conditions,endpoint,dose,result
Nc1[nH]c(=O)ncc1F,-,-,-,-,MIC90,-,>64 µg/mL
CN(C)C1=NC(=O)/C(=C/c2ccc(Cl)cc2)S1,ATCC 26934,-,broth dilution,-,MIC100,-,>250 µg/mL
COc1cc2occc2c(O)c1C(=O)/C=C/c1ccccc1,-,-,agar diffusion,-,zone,50 µg/disc,9 mm
CC(=O)N1CCN(c2ccc(OC[C@H]3CO[C@](Cn4ccnc4)(c4ccc(Cl)cc4Cl)O3)cc2)CC1,ATCC 26934,-,broth dilution,-,MIC100,-,0.125 µg/mL
CCC(C)n1ncn(-c2ccc(N3CCN(c4ccc(OC[C@H]5CO[C@](Cn6cncn6)(c6ccc(Cl)cc6Cl)O5)cc4)CC3)cc2)c1=O,-,TR34 azole-resistant,broth dilution,-,MIC90,-,>16 µg/mL
C=CCSSCC=C,28 isolates,-,-,-,MIC80,-,12 µg/mL
CC(=O)OC[C@H]1O[C@@H](Sc2nnc(-c3cccnc3)n2/N=C/c2ccccc2)[C@H](OC(C)=O)[C@@H](OC(C)=O)[C@@H]1OC(C)=O,-,-,agar diffusion / agar,-,zone,5 mg/mL,6–10 mm
C=CCSCC=C,28 isolates,-,-,-,MIC80,-,54 µg/mL
COc1ccc(/C=N/[n+]2c(-c3ccccc3)[nH]n([C@@H]3O[C@H](COC(C)=O)[C@@H](OC(C)=O)[C@H](OC(C)=O)[C@H]3OC(C)=O)c2=S)cc1,-,-,agar diffusion / agar,-,zone,5 mg/mL,6–10 mm
CC[C@@H]([C@H](C)O)n1ncn(-c2ccc(N3CCN(c4ccc(OC[C@@H]5CO[C@@](Cn6cncn6)(c6ccc(F)cc6F)C5)cc4)CC3)cc2)c1=O,-,-,-,-,MIC90,-,0.25–1 µg/mL
COc1ccc(/C=N/n2c(S[C@@H]3O[C@H](COC(C)=O)[C@@H](OC(C)=O)[C@H](OC(C)=O)[C@H]3OC(C)=O)nnc2-c2cccnc2)cc1,-,-,agar diffusion / agar,-,zone,2.5 mg/mL,1–5 mm
CCCCCCCCCCCCC#CCCCCC(=O)O,-,-,broth dilution,-,EC50,-,0.34 µg/mL
C[C@H](c1ncncc1F)[C@](O)(Cn1cncn1)c1ccc(F)cc1F,-,-,broth dilution,clinical isolate,MIC80,-,5.73 µM
CN(C)CCCC1(c2ccc(F)cc2)OCc2cc(C#N)ccc21,10 clinical isolates,-,-,-,MFC,-,312–2500 µg/mL
C[C@@H](n1ncc2cc(F)ccc21)[C@](O)(Cn1cncn1)c1ccc(F)cc1F,ATCC MYA-1163,-,-,-,MIC90,-,0.5 µg/mL
CC(=O)OC[C@H]1O[C@@H](n2[nH]c(-c3cccnc3)nc2=S)[C@H](OC(C)=O)[C@@H](OC(C)=O)[C@@H]1OC(C)=O,-,-,agar diffusion / agar,-,zone,5 mg/mL,1–5 mm
COc1cc(O)c(C(=O)O)c(-c2cc(O)c(O)cc2C)c1,CGMCC 3.5835,-,resazurin,-,EC50,-,198 µM
C[C@H]1[C@H](O)[C@@H](C)/C=C/C=C/C=C/C=C/C=C/C=C/C=C/[C@H](O[C@@H]2O[C@H](C)[C@@H](O)[C@H](N)[C@@H]2O)C[C@@H]2O[C@](O)(C[C@@H](O)C[C@@H](O)CC[C@H](O)[C@@H](O)C[C@@H](O)CC(=O)O[C@H]1C)C[C@H](O)[C@H]2C(=O)O,60 isolates,-,-,-,MIC90,-,1 µg/mL
COc1cc(O)c2c(c1)C1=C[C@@H](O)[C@@H](O)C[C@]1(C)OC2=O,CGMCC 3.5835,-,resazurin,-,EC50,-,>250 µM
CN(C/C=C/C#CC(C)(C)C)Cc1cccc2ccccc12,NFI 0239,-,-,-,MFC,-,4 µg/mL
CO[C@H]1O[C@@H](Oc2cc(O)c3c(=O)c(-c4ccc(O)cc4)coc3c2)[C@H](O)[C@@H](O)[C@@H]1O,-,-,-,-,inhibition,1000 µg/mL,95%
Cc1cc(O)cc2oc3cc(O)cc(O)c3c(=O)c12,CGMCC 3.5835,-,resazurin,-,EC50,-,169 µM
O=c1cc(-c2ccccc2)oc2c1ccc1occc12,-,-,agar diffusion,-,zone,50 µg/disc,8.5 mm
CC(=O)OC[C@H]1O[C@@H](n2nc(-c3cccnc3)n(N)c2=S)[C@H](OC(C)=O)[C@@H](OC(C)=O)[C@@H]1OC(C)=O,-,-,agar diffusion / agar,-,zone,5 mg/mL,1–5 mm
C[C@H]1[C@H](O)[C@@H](C)/C=C/C=C/C=C/C=C/C=C/C=C/C=C/[C@H](O[C@@H]2O[C@H](C)[C@@H](O)[C@H](N)[C@@H]2O)C[C@@H]2O[C@](O)(C[C@@H](O)C[C@@H](O)CC[C@H](O)[C@@H](O)C[C@@H](O)CC(=O)O[C@H]1C)C[C@H](O)[C@H]2C(=O)O,AB16.4,-,broth dilution,-,inhibition,4 µg/mL,66%
C[C@H]1[C@H](O)[C@@H](C)/C=C/C=C/C=C/C=C/C=C/C=C/C=C/[C@H](O[C@@H]2O[C@H](C)[C@@H](O)[C@H](N)[C@@H]2O)C[C@@H]2O[C@](O)(C[C@@H](O)C[C@@H](O)CC[C@H](O)[C@@H](O)C[C@@H](O)CC(=O)O[C@H]1C)C[C@H](O)[C@H]2C(=O)O,-,-,-,-,MIC90,-,0.5–8 µg/mL
O=C(/C=C/c1ccccc1)c1ccc2occc2c1O,-,-,agar diffusion,-,zone,50 µg/disc,0 mm
CCC(C)n1ncn(-c2ccc(N3CCN(c4ccc(OC[C@H]5CO[C@](Cn6cncn6)(c6ccc(Cl)cc6Cl)O5)cc4)CC3)cc2)c1=O,156 isolates,-,-,-,MIC90,-,2 µg/mL
CN(C)C1=NC(=O)/C(=C/c2ccc([N+](=O)[O-])cc2)S1,ATCC 26934,-,broth dilution,-,MIC100,-,>250 µg/mL
CC(=O)OC[C@H]1O[C@@H](Sc2nnc(-c3cccnc3)n2/N=C/c2ccc(Cl)cc2)[C@H](OC(C)=O)[C@@H](OC(C)=O)[C@@H]1OC(C)=O,-,-,agar diffusion / agar,-,zone,2.5 mg/mL,1–5 mm
C[C@H]1[C@H](O)[C@@H](C)/C=C/C=C/C=C/C=C/C=C/C=C/C=C/[C@H](O[C@@H]2O[C@H](C)[C@@H](O)[C@H](N)[C@@H]2O)C[C@@H]2O[C@](O)(C[C@@H](O)C[C@@H](O)CC[C@H](O)[C@@H](O)C[C@@H](O)CC(=O)O[C@H]1C)C[C@H](O)[C@H]2C(=O)O,NFI 0239,-,-,-,MIC,-,1 µg/mL